Anti-infective test results gathered from many reports (values: NIAID ChemDB through PubChem).

Common to all: host cell toxicity; cells: C8166; read-out: CC50

CCn is the concentration with n% toxicity to the cells.

Nc1ccn([C@H]2CC[C@@H](CO)O2)c(=O)n1 ; result: >1000 µM
Cc1cc(S(N)(=O)=O)ccc1NC(=O)COc1ccccc1NS(=O)(=O)c1ccccc1 ; method: MTT ; result: 209 µM
O=[N+]([O-])c1ccccc1-n1ccc2ccccc21 ; method: MTT ; result: 191.9 µg/mL
C=CCc1cc(O)c2c(c1)OCO2 ; method: MTT ; result: 439.5 µM
CSC[C@H](NC(=O)c1ccc2ccccc2n1)C(=O)N[C@@H](Cc1ccccc1)[C@H](O)CN1CCCC[C@H]1C(=O)NC(C)(C)C ; result: >10 µM
Cc1cn([C@H]2C[C@H](N=[N+]=[N-])[C@@H](CO)O2)c(=O)nc1NNCCO ; result: 150 µM
Cc1cn(-c2ccc([N+](=O)[O-])cc2)c2ccccc12 ; method: MTT ; result: 157 µg/mL
Oc1cc(O)c2c(c1)O[C@H](c1ccc(O)c(O)c1)[C@@H](O)C2 ; result: >100 µg/mL
O=c1c2cccn2c2ccccc2n1CCNC(=S)Nc1ccc(Br)cn1 ; result: 17 µM
C[C@H](C(=O)O)[C@H]1CC[C@@]2(C)C3C(=O)[C@H]4O[C@]45C(CCC(=O)C5(C)C)[C@]3(C=O)CC[C@]12C ; result: 145 µg/mL
Cc1cn([C@H]2C[C@H](N=[N+]=[N-])[C@@H](CO)O2)c(=O)nc1N(C)C ; result: >1000 µM
NS(=O)(=O)c1ccc(NC(=O)COc2ccc(Cl)cc2NS(=O)(=O)c2ccc([N+](=O)[O-])cc2)cc1 ; method: MTT ; result: 179 µM
C/C=C/c1ccc(OCC=C(C)C)c(OC)c1 ; method: MTT ; result: 359.6 µM
C=CCOn1c(C=C)nc2ccc(C)cc21 ; result: 20 µM
O=[N+]([O-])c1ccc(-n2ccc3ccccc32)cc1 ; method: MTT ; result: 91.44 µg/mL
O=c1c2cccn2c2ncccc2n1CCNC(=S)Nc1ccc(Br)cn1 ; result: 11 µM
NC(=O)c1nn([C@@H]2O[C@H](CO)[C@@H](O)[C@H]2O)cc1[N+](=O)[O-] ; result: 12 µM
CC1=C[C@H]([C@H](O)[C@H](C)[C@@H]2C[C@@H](O)[C@@]3(O)[C@H]4CC[C@@H]5C(C)(C)O[C@H]6CC(=O)O[C@]65C[C@]4(O)CC[C@@]23C)OC1=O ; result: >200 µg/mL
Cc1c(N)c(C(N)=O)nn1[C@@H]1O[C@H](CO)[C@@H](O)[C@H]1O ; result: 320 µM
CC(C)=CCN1Cc2cc(Cl)cc3[nH]c(=S)n(c23)C[C@@H]1C ; result: 62 µM
COc1ccc(S(=O)(=O)Nc2cc(Cl)ccc2OCC(=O)Nc2ccc(S(N)(=O)=O)cc2)cc1 ; method: MTT ; result: 75.61 µM
O=c1c2cccn2c2cccc(F)c2n1CCNC(=S)Nc1ccc(Br)cn1 ; result: 200 µM
O=c1c(O[C@@H]2OC[C@H](O)[C@H](O)[C@H]2O)c(-c2ccc(O)c(O)c2)oc2cc(O)cc(O)c12 ; result: >100 µg/mL
CC(=O)C[C@@H](C)[C@H]1CC[C@@]2(C)C3C(=O)C[C@@]45OC[C@]3(CC[C@]12C)C4CCC(=O)C5(C)C ; result: 165.2 µg/mL
COc1cc(C(c2ccc3c(c2)OCO3)C(C(=O)O)C(CO)CO)ccc1O ; result: 82.1 µg/mL
Cc1ccc(S(=O)(=O)Nc2cc(Cl)ccc2OCC(=O)Nc2ccc(S(N)(=O)=O)cc2C)cc1 ; method: MTT ; result: >382 µM
Cc1cn([C@H]2C[C@H](N=[N+]=[N-])[C@@H](CO)O2)c(=O)nc1N(C)N ; result: 400 µM
COc1cc(-c2oc3cc(O)cc(O)c3c(=O)c2O[C@@H]2O[C@H](CO[C@@H]3O[C@@H](C)[C@H](O)[C@@H](O)[C@H]3O)[C@@H](O)[C@H](O)[C@H]2O)ccc1O ; result: >200 µg/mL
NS(=O)(=O)c1ccc(NC(=O)COc2ccccc2NS(=O)(=O)c2ccccc2)cc1 ; method: MTT ; result: 217 µM
CCOn1c(C)nc2c(C)cccc21 ; result: 40 µM
CC(C)(C)OC(=O)[C@@H]1CCCN1C[C@@H](O)[C@H](Cc1ccccc1)NC(=O)[C@H](CC(N)=O)NC(=O)c1ccc2ccccc2c1 ; result: >10 µM
Cc1c([N+](=O)[O-])c(C(N)=O)nn1[C@@H]1O[C@H](CO)[C@@H](O)[C@H]1O ; result: >1650 µM
C=CCc1cc2c(c(CC=C(C)C)c1O)OCO2 ; method: MTT ; result: >813 µM
Cc1cccc2ccn(-c3ccccc3[N+](=O)[O-])c12 ; method: MTT ; result: >200 µg/mL
O=C(Oc1cc(O)c2c(c1)O[C@H](c1ccc(O)c(O)c1)[C@@H](O)C2)c1cc(O)c(O)c(O)c1 ; result: >100 µg/mL
CCO[C@@H]1O[C@]23CC(=O)C4[C@@]1(CC[C@]1(C)[C@@H]([C@H](C)CC(C)=O)CC[C@@]41C)C2CCC(=O)C3(C)C ; result: 54.8 µg/mL
NC(=O)c1ccn([C@@H]2O[C@H](CO)[C@@H](O)[C@H]2O)n1 ; result: 900 µM
CCCOn1c(CC)nc2c(C)cccc21 ; result: 1002 µM
Nc1ncnc2c1ncn2[C@H]1CC[C@@H](CO)O1 ; result: >1000 µM
C=CCc1cc2c(cc1OCC=C(C)C)OCO2 ; method: MTT ; result: 360.7 µM
COC(=O)[C@H](C)NP(=O)(OC[C@H]1O[C@@H](n2cc(C)c(=O)[nH]c2=O)C[C@@H]1N=[N+]=[N-])OCC(Cl)(Cl)Cl ; result: 200 µM
C[C@@H]1OC(OC[C@H]2O[C@@H](Oc3cc(O)c4c(c3)OC(c3ccc(O)cc3O)CC4=O)[C@H](O)[C@@H](O)[C@@H]2O)[C@H](O)[C@H](O)[C@H]1O ; result: >100 µg/mL
C=C(C)[C@@H]1CCC2C3(CC[C@]4(C)C(C(C)CC/C=C(/C)C(=O)OC)CC[C@@]24C)CC13CCC(=O)O ; method: MTT ; result: 78.7 µM
CO[C@@H]1O[C@]23CC(=O)C4[C@@]1(CC[C@]1(C)[C@@H]([C@H](C)CC(=O)C=C(C)C)CC[C@@]41C)C2CCC(=O)C3(C)C ; result: >200 µg/mL
CC(C)(C)NC(=O)[C@@H]1CCCCN1C[C@@H](O)[C@H](Cc1ccccc1)NC(=O)[C@H](CC(N)=O)NC(=O)c1ccc2ccccc2n1 ; result: >100 µM
Cc1cn([C@H]2C[C@H](N=[N+]=[N-])[C@@H](COP(=O)(OCC(Cl)(Cl)Cl)Oc3ccccc3)O2)c(=O)[nH]c1=O ; result: 70 µM
CC(C)=CC(=O)C[C@@H](C)[C@H]1CC[C@@]2(C)C3C(=O)[C@@H]4O[C@]45C(CCC(=O)C5(C)C)[C@]3(C=O)CC[C@]12C ; result: >200 µg/mL

The last 6 rows once more:

| SMILES | method | result |
|---|---|---|
| C[C@@H]1OC(OC[C@H]2O[C@@H](Oc3cc(O)c4c(c3)OC(c3ccc(O)cc3O)CC4=O)[C@H](O)[C@@H](O)[C@@H]2O)[C@H](O)[C@H](O)[C@H]1O | - | >100 µg/mL |
| C=C(C)[C@@H]1CCC2C3(CC[C@]4(C)C(C(C)CC/C=C(/C)C(=O)OC)CC[C@@]24C)CC13CCC(=O)O | MTT | 78.7 µM |
| CO[C@@H]1O[C@]23CC(=O)C4[C@@]1(CC[C@]1(C)[C@@H]([C@H](C)CC(=O)C=C(C)C)CC[C@@]41C)C2CCC(=O)C3(C)C | - | >200 µg/mL |
| CC(C)(C)NC(=O)[C@@H]1CCCCN1C[C@@H](O)[C@H](Cc1ccccc1)NC(=O)[C@H](CC(N)=O)NC(=O)c1ccc2ccccc2n1 | - | >100 µM |
| Cc1cn([C@H]2C[C@H](N=[N+]=[N-])[C@@H](COP(=O)(OCC(Cl)(Cl)Cl)Oc3ccccc3)O2)c(=O)[nH]c1=O | - | 70 µM |
| CC(C)=CC(=O)C[C@@H](C)[C@H]1CC[C@@]2(C)C3C(=O)[C@@H]4O[C@]45C(CCC(=O)C5(C)C)[C@]3(C=O)CC[C@]12C | - | >200 µg/mL |

Blank or dashed fields: not listed here. Conditions beyond the fields shown may differ between rows.